Laboratory results reported in the supplement of paper PMC9931576.
Human monoclonal antibodies against the spike receptor-binding domain (heavy:light variable regions). IC50 against pseudoviruses bearing the spike of naturally observed variants; lower = stronger; >10 µg/ml means not reached at the top dose. No active / inactive call. The stated detection limit is 0.0005 µg/ml; values near or below 0.001 µg/ml lie at the floor of the assay.

Assays:
Experiment in all cases: pseudovirus neutralization IC50; higher = weaker neutralization
[1] = target: SARS-CoV-2 Omicron BA.1 spike pseudovirus
Procedure: (§1)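 Single-round VSV luciferase pseudovirus mixed with antibody dilutions for 1 h and put on Huh-7 cells for about a day; IC50 from the dose curve.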

[2] = target: SARS-CoV-2 Omicron BA.2 spike pseudovirus
Procedure: as §1

[3] = target: SARS-CoV-2 Omicron BA.2.75 spike pseudovirus
Procedure: as §1

[4] = target: SARS-CoV-2 Omicron BA.5 spike pseudovirus
Procedure: as §1

[5] = target: SARS-CoV-2 Omicron BQ.1.1 spike pseudovirus
Procedure: as §1

[6] = target: SARS-CoV-2 Omicron XBB spike pseudovirus
Procedure: as §1

[7] = target: SARS-CoV-2 early D614G spike pseudovirus
Procedure: as §1

| Binder | pseudovirus neutralization IC50 [1] [µg/mL] | pseudovirus neutralization IC50 [2] [µg/mL] | pseudovirus neutralization IC50 [3] [µg/mL] | pseudovirus neutralization IC50 [4] [µg/mL] | pseudovirus neutralization IC50 [5] [µg/mL] | pseudovirus neutralization IC50 [6] [µg/mL] | pseudovirus neutralization IC50 [7] [µg/mL] |
| --- | --- | --- | --- | --- | --- | --- | --- |
| BD56-1520 (protein) chain 1: EVQVVESGGGLVQPGRSLRLSCTASGFTFDDYAMHWVRQAPGKGLEWVSGITWNSGTIGYADSVKGRFIISRDNAKNSLNLQMNSLRPEDTALYFCAKDMGKDDYDFLTGFRDWGQGTLVTVSS chain 2: QSVLTQPPSASGTPGQRVSISCSGSSSNIGSNTVNWYQQLPGTAPKLLIYRNNQRPSGVPDRFSGSKSGTSASLAISGLQSEDEADYYCAAWDDSLYVFGTGTKVTVL | 0.134 | 0.213 | 0.111 | > 10 | > 10 | > 10 | 0.117 |
| BD56-1549 (protein) chain 1: QVQLQESGPGLVKPSETLSVTCAVSGGPINNYYWNWIRQPPGKGLEWIGYIYSSGSTKYHPSLKSRVTISVDTSKNQFSLKVRSVTAADTAVYYCVREGPTGFYDSWGQGTLVTVSS chain 2: EIVLTQSPGTLSLSPGERATLSCRASQSVSSGYLAWYQQKPGQAPRLLIYGASSRATGISDRFRGSGSGTDFTLTISRLEPEDFAVYYCQQYGGSEYTFGQGTKLEIK | > 10 | > 10 | > 10 | > 10 | > 10 | > 10 | > 10 |
| BD56-1576 (protein) chain 1: EVQLVQSGAEVKKPGESLKISCKHSGYSLTSYWIGWVRQMPGKGLEWMGIIFPGDSDTRYSPSFQGHVTISADKSITTAYLQWASLKASDTAMYYCARLPGLGELSSHFDYWGQGTRVTVSS chain 2: DIQMTQSPSSLSASVGDRVTITCRASQRISTYLNWYQQKPGKVPKLLIYAASSLQSGVPSRFSGSGSGTDFTLTISSLQPEDFATYYCQQTFNAPMNTFGQGTTLDIK | > 10 | > 10 | > 10 | > 10 | > 10 | > 10 | > 10 |
| BD56-1579 (protein) chain 1: EVQLVESGGALVQPGGSLRLSCAASGFSFSTYWMHWVRHAPGTGLVWVSRIKSDGRSTNYADSVKGRFTISRDNAKNTLYLQMNSLRAEDTAVYYCTRVVMGASPLGYFDSWGQGTLVTVSA chain 2: NFMLTQPHSVSESPGKTVTISCTGSSGSIASNYVQWYQQRPGSAPTTVIYEDNQRPSGVPDRFSGSIDSSSNSASLTISGLKTEDEADYYCQSYDIYNPAVVFGGGTKLTVL | 0.462 | 4.51 | 1.82 | 6.64 | 5.07 | 5.89 | 0.372 |
| BD56-1541 (protein) chain 1: EVQLVQSGVEVRKPGESLRISCKASGYMFTSHWIAWVRQMPGKGLEWMGIIYPYDSDTRYSPSFQGQVTISADQSITTAYLQWSSLKASDTALYYCARQDTYWYNFWGQGTLVTVSS chain 2: SSELTQDPAVSVALGQTVRITCQGDSLRSYYASWYQQKPGQAPVLVKYDNNNRPSGIPDRFSGSNSGNTASLTITGAQAEDEADYYCQSRDSSGNHLVFGGGTKLTVL | 1.4 | 2.06 | 1.82 | 2.18 | 3.14 | 5.52 | 2.5 |
| BD56-1542 (protein) chain 1: QVQLVESGGGVVQPGRSLRLSCVASGFTFSNYGMHWVRQAPGKGLEWVAVIWYDGSNKFYTDSVKGRLTISRDSSKNTVYLQMNSLRAEDTAVYFCAKQGGPYCSGGNCLGYLDYWGQGTLVTVSS chain 2: DIQMTQSPSSLSASVGDRVTITCQASQDISNYLNWYQQKPGKAPRLLIFGASNLETGVPSRFSGSGSGTDFTFTISRLQPEDIATYYCQRYDNLPPTFGGGTKVEIK | > 10 | > 10 | > 10 | > 10 | > 10 | > 10 | > 10 |
| BD56-1552 (protein) chain 1: EVQLVESGGGLVQPGGSLRLSCAASGIIVRANYMNWVRQAPGKGLECVSVIYPGGSTFYADSVRGRFTISRDNSKNTLYLQMNSLRVEDTAVYYCARDQGEETFDIWGQGTMVTVSS chain 2: DIQLTQSPSFLSASVGDRVTITCRASQDIGSYLAWYQQKPGKAPRLLIYAASTLQSGVPSRFSGSDSGTEFTLTISSLQPEDFATYYCQQLNSYPPLFGGGTKVEIK | 0.00416 | 0.00674 | > 10 | 0.00761 | > 10 | > 10 | 0.0472 |
| BD56-1521 (protein) chain 1: QVQLVQSGAEVKKPGASVRVSCRASGYRFTTYGFSWVRQAPGQGLEWMGWISAYNGNKQYAQRLQGRVTMTTDTSTNTAYMELRSLRFDDTAVYYCARDFGEISGSENFDFWGQGTLVSVSS chain 2: EIVLTQSPATLSLSPGERANLSCRASQSVSIYLAWFQQKPGQAPRLLIYHASNRATGIPARFSGSGSGTDFTLTISSLEPEDFAVYYCQLRSNWPSFGQGTRLEIK | 0.029 | 0.242 | 0.204 | > 10 | > 10 | > 10 | 0.304 |
| BD56-1539 (protein) chain 1: QVQLVQSGAEVKKPGASVKVSCKASGYTFSSQYLHWVRQAPGQGLEWMGIINPSGGSTSYAQKFQGRVTMTSDTSTSTVYMELSGLRSEDTAVYYCARDWAYIPATMAFDTWGQGTLVTVSS chain 2: DIQMTQSPSTLSASVGDRVTITCRASQSISSRLAWYQQKPGKAPKLLIYKASSLETGVPSRFSGSGSGTEFTLTISSLQPDDFATYYCQHYNSYSYTFGQGTKLEIK | 3.61 | 5.01 | 4.58 | 4.67 | 4.97 | 5.24 | 5.53 |
| BD56-1540 (protein) chain 1: QVQLVESGGGVVQPGRSLRLSCVASGFTFSNYGMHWVRQAPGKGLEWVAVILYDGSNKYYADSVKGRFTISRDNSKNTLYLQMNSLRAEDTAVYYCAKVLGPYCSAGNCYSGYFDYWGQGTLVTVSS chain 2: DIQMTQSPSTLSASVGDRVTITCRASQSISSWLAWYQQRPGKAPKLLIYETSSLESGVPSRFSGSGSGTEFTLTISSLQPDDFATYYCQQYNTYSNTFGQGTKLEIK | > 10 | > 10 | > 10 | > 10 | > 10 | > 10 | > 10 |
| BD56-1557 (protein) chain 1: EVQLVQSGAEVTKPGESLKISCKGSGYSFSTYWIAWVRQMPGEGLEWMGIIYPGDSDTRYSPSFQGQVTISADKSISTAYLQWSSLKASDTAIYYCARLYDYVGFDPWGQGTLVTVSS chain 2: SSELTQDPAVSVALGQTVRITCQGDSLRSYYASWYQQKPRQAPILVIYDKNKRPSGIPDRFSGSSSGNTASLTITGAQAEDEADYYCNSRNNSANHYVFGTGTKVTVL | 1.59 | 2.14 | 1.74 | 1.66 | 2.1 | 2.18 | 5.19 |
| BD56-1518 (protein) chain 1: QVQLQESGPGLVKPSQTLSLTCTVSGGSINSGGHYWSWIRQHPGKGLEWIGYISYTGSTYYNPSLRSRVAISADTSKNQFSLRLSSVTAADTAVYFCARGVGQHSDPFDYWGQGTLVTVSS chain 2: DIQMTQSPSSVSASVGDRVTITCRASQGIGNWLAWYQQKPEKAPKLLIYVASRLQSGVPSRFSGSGSGTDFTLTISSLQPEDFATYYCQQANSFPLAFGQGTKVEIK | > 10 | > 10 | > 10 | > 10 | > 10 | > 10 | > 10 |
| BD56-1530 (protein) chain 1: QVQLVESGGGVVQPGRSLRLSCAASGFTFINYSMHWVRQTPGRGLEWVAVISYEGRNKYYADSVEGRFTISRDNSKNTLYLQMNSLRIEDTAIYYCARADDSGSYYYVRFSPDYWGQGTLVSVSS chain 2: DVVMTQSPLSLPVTLGQPASISCRSSQSLVYADGNTYLNWFHQRPGQSPRRLIYKVSNRDSGVPDRFSGSGSGTDFTLQISRVEAEDVGVYYCMQGTHWPPSFGGGTKVEIK | 2.79 | 3.17 | 1.14 | 1.33 | 0.908 | 0.963 | > 10 |
